{
  "source": "ChEMBL document CHEMBL4819148",
  "about": "“Anti-protozoal and anti-fungal evaluation of 3,5-disubstituted 1,2-dioxolanes” (Bioorg Med Chem Lett, 2021)",
  "test_system": "HUVEC",
  "assay": "Cytotoxicity against HUVEC cells assessed as reduction in cell viability",
  "type": "cell-based",
  "settings": "human",
  "data": [
    {"smiles": "CCCCCCC1CC(N=[N+]=[N-])OO1", "note": "(stereo unspecified)", "values": [
      {"measurement": "CC50", "value": 12.2, "unit": "µM"}
    ]}
  ]
}
